In experiment [1] the target is T1, human Kv1.1 channel (human), Q09470.
T1 chain: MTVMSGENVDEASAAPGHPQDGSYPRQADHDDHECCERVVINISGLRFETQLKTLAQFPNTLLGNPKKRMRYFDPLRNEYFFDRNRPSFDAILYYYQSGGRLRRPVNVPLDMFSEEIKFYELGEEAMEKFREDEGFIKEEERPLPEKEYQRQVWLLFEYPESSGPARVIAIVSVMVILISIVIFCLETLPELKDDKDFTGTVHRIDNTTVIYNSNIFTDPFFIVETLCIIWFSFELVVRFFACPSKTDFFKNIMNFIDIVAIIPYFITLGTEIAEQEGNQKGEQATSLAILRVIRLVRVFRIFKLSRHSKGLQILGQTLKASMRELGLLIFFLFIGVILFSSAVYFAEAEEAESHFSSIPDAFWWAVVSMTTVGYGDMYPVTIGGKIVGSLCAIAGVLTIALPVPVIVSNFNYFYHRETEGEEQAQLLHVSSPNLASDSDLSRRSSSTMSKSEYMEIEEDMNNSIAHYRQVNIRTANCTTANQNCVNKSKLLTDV
As to the kind of experiment: cell-based or functional assay.

The target of experiment [2] is human Kv1.3 channel (human), P22001. Nature of the experiment: cell-based or functional assay.

As for GVIINVKCKISRQCLEPCKKAGMRFGACMNGKCHCTPK (modifications not checked) [OSK1 Alanine Analog K27A (SEQ ID NO: 1423)], the Kv1.1 IC50, pM (IonWorks) in experiment [1] is greater than 3000 pM. In experiment [2], this molecule registered an Analog IC50 Divided by Ala-1 IC50, IL2 of 20.3 fold and a WB/IL-2 IC50, pM of 1230 pM.

The molecule GVIINVKCKIARQCLEPCKKAGMRFGKCMNGKCHCTPK (modifications not checked) [OSK1 Alanine Analog S11A (SEQ ID NO: 1409)] came in with a WB/IL-2 IC50, pM in experiment [2] of 90 pM.

GVIINVKCKISRQCLEPCKKAGMRFGKCMNGKCHCRPK (modifications not checked) [OSK1 T36R analog] came in with a WB/IFNg IC50 in experiment [2] of 10.1 nM.

In experiment [2], GVIINVKCKISRQCLEPCKKRGMRFGKCMNGKCHCTPK (modifications not checked) [OSK1 A21R analog] displayed a WB/IL-2 IC50 of 0.09 nM.

GVIINVKCKISRQCLEPCKKAGMRFGKCMNGKCECTPK (modifications not checked) [OSK1 H34E analog]: the Kv1.3 Selectivity (= Kv1.1/Kv.3 IC50) in experiment [2] turned out to be 30 fold.

GVIIEVKCKISRQCLEPCKKAGMRFGKCMNGKCHCTPK (modifications not checked) [OSK1 N5E analog]: in experiment [2], the WB/IL-2 IC50 was found to be 0.1 nM.

Regarding GVIINVKCKISRQCLEPCKKAGMRFRKCMNGKCHCTPK (modifications not checked) [OSK1 G26R analog], the WB/IFNg IC50 in experiment [2] amounted to 100 nM.

With GVIINVKCKIRRQCLEPCKKAGMRFGKCMNGKCHCTPK (modifications not checked) [OSK1 S11R analog], the Kv1.3 IC50, whole cell patch clamp in experiment [2] is 0.04 nM.

Take GVIINVKCKISRQCLEPCKKAGMRFEKCMNGKCHCTPK (modifications not checked) [OSK1 G26E analog]: in experiment [2], the WB/IFNg IC50 was 100 nM and the WB/IL-2 IC50 was determined as 100 nM.

Regarding GVIINVKCKISRQCLEPCKKAAMRFGKCMNGKCHCTPK (modifications not checked) [OSK1 Alanine Analog G22A (SEQ ID NO: 1418)], the Kv1.1 IC50, pM (IonWorks) in experiment [1] is greater than 3000 pM. Besides, the Kv1.3 IC50, pM (IonWorks) in experiment [2] is greater than 3000 pM.

In experiment [1], GVIINVKCKISRQCLEPCKKAGMRFGKCMAGKCHCTPK (modifications not checked) [OSK1 Alanine Analog N30A (SEQ ID NO: 1425)] came in with a Kv1.1 IC50, pM (IonWorks) greater than 3000 pM.

GVIINVKCKISEQCLEPCKKAGMRFGKCMNGKCHCTPK (modifications not checked) [OSK1 R12E analog]: the WB/IFNg IC50 in experiment [2] stood at 2 nM.

With GVIINVKCKISRQCLEPCKKAGMRFGKCMNGKCHCTPR (modifications not checked) [OSK1 K38R analog], the WB/IFNg IC50 in experiment [2] is 0.04 nM.

As to GVIINVKCKISRQCLEPCKKAGMRFGKCRNGKCHCTPK (modifications not checked) [OSK1 M29R analog], in experiment [2], the Kv1.3 IC50, IonWorks electrophysiology turned out to be 200 pM and the Kv1.3 Selectivity (= Kv1.1/Kv.3 IC50) worked out at 30 fold.

GVIINVKCKISRQCLEPCKKAGMAFGKCMNGKCHCTPK (modifications not checked) [OSK1 Alanine Analog R24A (SEQ ID NO: 1420)]: the Kv1.3 IC50, pM (IonWorks) in experiment [2] is greater than 3000 pM.

For GVIINVKCKASRQCLEPCKKAGMRFGKCMNGKCHCTPK (modifications not checked) [OSK1 Alanine Analog I10A (SEQ ID NO: 1408)], in experiment [2], the Average IC50 (nM) IL-2, thapsigargin-induced, human whole blood stood at 0.05 nM and the WB/IL-2 IC50, pM was 50 pM.

For the origin of these results see patent US20090291885A1, “Conjugated toxin peptide therapeutic agents” (published 2009).
